Km, kcat and kcat/Km data for five substances are collected here from article PMC4673825, “Active site coupling in Plasmodium falciparum GMP synthetase is triggered by domain rotation” (Nature Communications, 2015).

In general, Km refers to the substrate concentration at which the rate is half of its maximum. One may read the kcat as the number of substrate molecules converted per active site and unit of time at saturation. Broadly, the kcat/Km is the second-order rate constant that governs catalysis at low substrate concentration.

Data set [1] deals with O=c1[nH]c(=O)c2ncn([C@@H]3O[C@H](COP(=O)(O)O)[C@@H](O)[C@H]3O)c2[nH]1. The experiment in a line: purified protein.
The subject of a further data set is NC(=O)CC[C@H](N)C(=O)O. The experiment in a line: purified protein. Particulars: 2 mM ATP, 150 μM XMP, 20 mM MgCl2, pH 8.5, 25 °C; pH 8.5; 25.0 °C.
[2] abbreviates: 2 mM ATP, 100 mM NH4Cl, 20 mM MgCl2, pH 8.5, 25 °C, NH4Cl-dependent, pH 8.5, 25.0 °C.

For “PfGMPS (Plasmodium falciparum 3D7; C89A)”, in data set [1] (setting [2]), the Michaelis constant (Km) was 18 ± 1 µM, the catalytic constant (kcat) worked out at 1.5 s⁻¹ and the catalytic efficiency (kcat/Km) worked out at 83300 M⁻¹ s⁻¹.
Consider “PfGMPS (Plasmodium falciparum 3D7; C113A/C89A)”, for which, in data set [1] (setting [2]), the Km is 19 ± 1.9 µM, the kcat came out at 1.68 s⁻¹ and the kcat/Km came out at 88600 M⁻¹ s⁻¹.
Take “PfGMPS (Plasmodium falciparum 3D7; D172A)”: in the data set on NC(=O)CC[C@H](N)C(=O)O, the Michaelis-Menten constant (Km) was 62200 ± 3300 µM, the kcat turned out to be 0.607 s⁻¹ and the kcat/Km was determined as 10 M⁻¹ s⁻¹.
In the case of “PfGMPS (Plasmodium falciparum 3D7; D371A)”, the Michaelis-Menten constant (Km) in data set [1] (saturating ATP, activation of glutaminase activity) stood at 0.20 ± 0.02 µM.
Regarding “PfGMPS (Plasmodium falciparum 3D7; Y212W)”, in the data set with NC(=O)CC[C@H](N)C(=O)O, the Michaelis-Menten constant (Km) was 1010 ± 40 µM, the turnover number (kcat) stood at 0.9 s⁻¹ and the kcat/Km was determined as 883 M⁻¹ s⁻¹.
